Measured values from several laboratories, pooled; numbers as filed in NIAID ChemDB.

Common to all: tests on isolated targets; agent: HIV-1; protein: Protease; read-out: IC50

Lines come from different laboratories, so protocols vary.

compound	read by	setting	value
CC(=O)ONc1ccc(S(=O)(=O)N(CC(C)C)C[C@@H](O)[C@H](Cc2ccccc2)NC(=O)CN2C(=O)c3ccccc3C2=O)cc1			0.02 µM
COCCNC(=O)[C@@H](NC(=O)[C@H](Cc1ccc(OC)c(OC)c1OC)C[C@H](O)[C@H](Cc1ccccc1)NC(=O)OC(C)(C)C)C(C)C	fluorescence		0.001 µM
CC[C@H](C)[C@H](NC(=O)[C@@H](NC(=O)CCCCCCCCCCCCCCC(=O)N[C@@H](CS(C)(=O)=O)C(=O)N[C@@H](Cc1ccccc1)C(=O)O)C(C)O)C(=O)N[C@@H](Cc1ccccc1)C(N)=O	HPLC		1.17 µM
CC(C)(C)OC(=O)N[C@@H](Cc1ccccc1)[C@@H](O)CC(=O)N[C@@H](CCC(=O)O)C(=O)N[C@@H](Cc1ccccc1)C(=O)O	HPLC		0.2 µM
CC(C)(C)OC(=O)N1C2C3(CO)C(c4ccccc4)C4(CO)C1C1(CO)C(c5ccccc5)C2(CO)C3N(C(=O)OC(C)(C)C)C41			0.02 µM
CC(C)CCN(C[C@@H](O)[C@H](Cc1ccccc1)NC(=O)OCc1ccccc1)S(C)(=O)=O			<10 µM
COC(=O)[C@@H](NC(=O)[C@@H](NC(=O)C[C@H](O)[C@H](CC(C)C)NC(=O)[C@@H](NC(=O)[C@H](Cc1c[nH]c2ccccc12)NC(=O)OCc1ccccc1)C(C)C)C(C)C)C(C)C	fluorescence		0.3 µM
CC(C)CN(C[C@@H](O)[C@H](Cc1ccccc1)NC(=O)[C@H](C)N1C(=O)c2ccccc2C1=O)S(=O)(=O)c1ccc(Br)cc1			>0.1 µM
CC(C(=O)O)C(C)C(=O)N[C@@H](Cc1ccccc1)[C@H](O)C(=O)N1CSC[C@H]1C(=O)NC(C)(C)C			<5 µM
CC(=O)ONc1ccc(S(=O)(=O)N(CC(C)C)C[C@@H](O)[C@H](Cc2ccccc2)NC(=O)CCCc2c[nH]c3ccccc23)cc1			0.06 µM
CCCCCC(=O)O[C@H]1CC[C@@]2(C)C(CC[C@]3(C)C2CC=C2C4CC(C)(C)CC[C@]4(C(=O)O)CC[C@]23C)C1(C)C	HPLC		>20 µM
CC[C@H](C)[C@H](NC(=O)[C@@H](NC(=O)CCCCCCCCCCCCCCC(=O)N[C@@H](Cc1ccc(N)cc1)C(=O)N[C@@H](Cc1ccccc1)C(=O)O)C(C)O)C(=O)N[C@@H](Cc1ccccc1)C(N)=O	HPLC		0.97 µM
COC(=O)[C@H](NC(=O)[C@H](NC(=O)[C@H](Cc1ccccc1)C[C@H](O)[C@H](Cc1ccccc1)NC(=O)[C@H](C)NC(=O)[C@H](C)N)C(C)C)C(C)C	HPLC		10 µM
COc1cccc(CCC(=O)N2C[C@@H](O)[C@@H](Cc3ccccc3)N(Cc3ccc(O)c(OC)c3)C(=O)N2Cc2ccc(O)c(OC)c2)c1	fluorescence		<0.0005 µM
CC1(C)CC[C@]2(C(=O)O)CC[C@]3(C)C(=CCC4[C@@]5(C)CC[C@@H](NC(=O)CCCCC(=O)O)C(C)(C)C5CC[C@]43C)C2C1	HPLC		2.1 µM
CC(=O)N[C@@H](Cc1c[nH]c2ccccc12)C(=O)N[C@H](C(=O)N[C@@H](CC(C)C)[C@@H](O)CC(=O)N[C@H](C(=O)N[C@H](C(=O)OCc1ccccc1)C(C)C)C(C)C)C(C)C	fluorescence		0.1 µM
CC(C)CN(C[C@@H](O)[C@H](Cc1ccccc1)NC(=O)CCCN1C(=O)c2ccccc2C1=O)S(=O)(=O)c1ccc(Br)cc1			>0.1 µM
Cc1ccccc1CNC(=O)[C@@H]1CSCN1C(=O)[C@@H](O)[C@H](Cc1ccccc1)NC(=O)C(C)C(C)C(=O)O			<5 µM
CC[C@H](C)[C@H](NC(=O)C[C@H](O)[C@H](CC(C)C)NC(=O)[C@@H](NC(=O)[C@H](Cc1ccc(O)cc1)NC(=O)OCc1ccccc1)C(C)C)C(=O)N[C@@H](Cc1ccccc1)C(=O)O	fluorescence		0.1 µM
COc1ccc(S(=O)(=O)N(CC(C)C)C[C@@H](O)[C@H](Cc2ccccc2)NC(=O)c2cccnc2)cc1			0.067 µM
COC(=O)[C@]12CCC(C)(C)CC1C1=CCC3[C@@]4(C)CC[C@@H](NC(=O)CCCCC(=O)O)C(C)(C)C4CC[C@@]3(C)[C@]1(C)CC2	HPLC		3.5 µM
CC(C)CCN(C[C@@H](O)[C@H](Cc1ccccc1)NC(=O)OCc1ccccc1)S(=O)(=O)c1ccc(F)cc1			0.03 µM
COC(=O)[C@H](Cc1ccccc1)NC(=O)[C@H](CCC(=O)Nc1ccn([C@H]2CS[C@@H](CO)O2)c(=O)n1)NC(=O)C[C@H](O)C(CC(C)C)NC(=O)[C@@H](NC(=O)[C@H](Cc1c[nH]c2ccccc12)NC(C)=O)C(C)C	HPLC		0.02 µM
CSCC[C@H](NC(=O)CCCCCCCCCCCCCCC(=O)N[C@@H](CC(N)=O)C(=O)N[C@@H](CC1CCCCC1)C(=O)O)C(=O)N[C@@H](CC(C)C)C(=O)N[C@@H](Cc1ccccc1)C(N)=O	HPLC		0.5 µM
COC(=O)N1C2C3C4N(C(=O)OC)C5C(C1C5(CO)[C@H]3c1ccccc1)[C@@H](c1ccccc1)C24CO			0.18 µM
CC1(C)CC[C@]2(C(=O)O)CC[C@]3(C)C(=CC[C@@H]4[C@@]5(C)CC/C(=N\O)C(C)(C)[C@@H]5CC[C@]43C)[C@@H]2C1	HPLC		9.5 µM
CC(C)CC(=O)N1C[C@@H](O)[C@@H](Cc2ccccc2)N(Cc2cccc(N)c2)C(=O)N1Cc1cccc(N)c1	fluorescence	pH 4.5	<0.0005 µM
CC(C)CC(NC(=O)[C@@H](NC(=O)[C@H](Cc1ccc(O)cc1)NC(=O)OCc1ccccc1)C(C)C)[C@@H](O)CC(=O)N[C@@H](C)C(=O)N[C@H](CO)CC(C)C	fluorescence		1 µM
COc1ccc(S(=O)(=O)N(CC(C)C)C[C@@H](O)[C@H](Cc2ccccc2)NC(=O)c2ccccc2S(C)(=O)=O)cc1			<10 µM
CC(C)C[C@H](NC(=O)[C@@H](NC(=O)CCCCCCCCCCCCCCC(=O)N[C@@H](CC(N)=O)C(=O)N[C@@H](CC1CCCCC1)C(=O)O)C(C)C)C(=O)N[C@@H](Cc1ccccc1)C(N)=O	HPLC		0.41 µM
COC(=O)[C@]12CCC(C)(C)CC1C1=CCC3[C@@]4(C)CC[C@@H](N)C(C)(C)C4CC[C@@]3(C)[C@]1(C)CC2	HPLC		>20 µM
COC(=O)[C@H](Cc1ccccc1)NC(=O)[C@H](CCC(=O)O)NC(=O)C[C@H](O)C(CC(C)C)NC(=O)[C@@H](NC(=O)[C@H](Cc1c[nH]c2ccccc12)NC(C)=O)C(C)C	HPLC		0.01 µM
CC(C)CCN(C[C@@H](O)[C@H](Cc1ccccc1)NC(=O)OCc1ccccc1)S(=O)(=O)CCl			<10 µM
CC(C)C[C@H](NC(=O)[C@@H](NC(=O)CCCCCCCCCCCCCCC(=O)N[C@@H](CS(C)(=O)=O)C(=O)N[C@@H](Cc1ccccc1)C(=O)O)C(C)C)C(=O)N[C@@H](Cc1ccccc1)C(N)=O	HPLC		0.48 µM
COc1cc(CN2C(=O)N(Cc3ccc(O)c(OC)c3)N(C(=O)CC3CCCC3)C[C@@H](O)[C@H]2Cc2ccccc2)ccc1O	fluorescence		<0.0005 µM
CC(=O)ONc1ccc(S(=O)(=O)N(CC(C)C)C[C@@H](O)[C@H](Cc2ccccc2)NC(=O)CCn2c(=O)oc3ccccc32)cc1			0.005 µM
COc1ccc(S(=O)(=O)N(CC(C)C)C[C@@H](O)[C@H](Cc2ccccc2)NC(=O)c2cc(C)ccc2C)cc1			0.007 µM
CC(=O)ONc1ccc(S(=O)(=O)N(CC(C)C)C[C@@H](O)[C@H](Cc2ccccc2)NC(=O)[C@H](CC(C)C)N2C(=O)c3ccccc3C2=O)cc1			0.019 µM
CC(C)C[C@H](NC(=O)[C@H](C)NC(=O)C[C@H](O)[C@H](CC(C)C)NC(=O)[C@@H](NC(=O)[C@H](Cc1ccc(O)cc1)NC(=O)OCc1ccccc1)C(C)C)[C@@H](O)CC(=O)O	fluorescence		0.06 µM
CC(C)(C)NC(=O)[C@@H]1CSCN1C(=O)[C@@H](O)[C@H](Cc1ccccc1)NC(=O)CCCC(=O)O			<5 µM
COC(=O)CCCCC(=O)O[C@H]1CC[C@@]2(C)C(CC[C@]3(C)C2CC=C2C4CC(C)(C)CC[C@]4(C(=O)O)CC[C@]23C)C1(C)C	HPLC		5.6 µM
CC(C)CC(=O)N1C[C@@H](O)[C@@H](Cc2ccccc2)N(Cc2ccc(N)cc2)C(=O)N1Cc1ccc(N)cc1	fluorescence	pH 4.5	<0.001 µM
Cc1cn([C@@H]2C[C@@H](N=[N+]=[N-])[C@H](COC(=O)C(C)(C)CC(=O)N[C@@H](Cc3ccccc3)[C@H](O)C(=O)N3CSC[C@H]3C(=O)NC(C)(C)C)O2)c(=O)[nH]c1=O			>5 µM
COC(=O)[C@]12CCC(C)(C)CC1C1=CCC3[C@@]4(C)CC[C@H](NC(=O)CCCCC(=O)N[C@H]5CC[C@@]6(C)C(CC[C@]7(C)C6CC=C6C8CC(C)(C)CC[C@]8(C(=O)OC)CC[C@]67C)C5(C)C)C(C)(C)C4CC[C@@]3(C)[C@]1(C)CC2	HPLC		>20 µM
CC(C)CCN(C[C@@H](O)[C@H](Cc1ccccc1)NC(=O)OCc1ccccc1)S(=O)(=O)Cc1ccccc1			>10 µM

Again, the opening 5 rows:

compound	read by	setting	value
CC(=O)ONc1ccc(S(=O)(=O)N(CC(C)C)C[C@@H](O)[C@H](Cc2ccccc2)NC(=O)CN2C(=O)c3ccccc3C2=O)cc1			0.02 µM
COCCNC(=O)[C@@H](NC(=O)[C@H](Cc1ccc(OC)c(OC)c1OC)C[C@H](O)[C@H](Cc1ccccc1)NC(=O)OC(C)(C)C)C(C)C	fluorescence		0.001 µM
CC[C@H](C)[C@H](NC(=O)[C@@H](NC(=O)CCCCCCCCCCCCCCC(=O)N[C@@H](CS(C)(=O)=O)C(=O)N[C@@H](Cc1ccccc1)C(=O)O)C(C)O)C(=O)N[C@@H](Cc1ccccc1)C(N)=O	HPLC		1.17 µM
CC(C)(C)OC(=O)N[C@@H](Cc1ccccc1)[C@@H](O)CC(=O)N[C@@H](CCC(=O)O)C(=O)N[C@@H](Cc1ccccc1)C(=O)O	HPLC		0.2 µM
CC(C)(C)OC(=O)N1C2C3(CO)C(c4ccccc4)C4(CO)C1C1(CO)C(c5ccccc5)C2(CO)C3N(C(=O)OC(C)(C)C)C41			0.02 µM

ICn is the concentration giving n% inhibition. Blank or dashed fields: not listed here.